# From patent US10144713B1, “Bis-cyclic guanidines as antibacterial agents” (UNIVERSITY OF SOUTH FLORIDA, priority 2017, dated 2018)
# System: human red blood cells (hRBCs)
# Assay: Hemolytic assay
# Format: cell-based
# Details: HC50/MIC MRSA
# Protocol: The freshly drawn, K2EDTA treated human red blood cells (hRBCs) were washed with 1×PBS buffer, and centrifuged at 3500 rpm for 10 min. The step was repeated until the supernatant became clear. The supernatant was removed, and the RBCs were diluted into 5% v/v suspension. 50 μL of the suspension was incubated with 50 μL of compounds of different concentrations at 37° C. for 1 h. The mixture was centrifuged at 3500 rpm for 10 min. Subsequently, to 30 μL of the supernatant 100 μL PBS was added, and the absorbance of the mixture at 540 nm was read on a Biotek Synergy HT plate reader. The positive control was 2% Triton X-100, and the negative control was 1×PBS alone. The hemolysis activity was calculated by the formula % hemolysis=(Abssample−AbsPBS)/(AbsTriton−AbsPBS)×100%. The experiment was repeated at least three times with duplicates each time.
row,SMILES,Activity Index
1,N=C1N(CC(=O)Nc2ccc(NC(=O)CN3C[C@H](Cc4ccccc4)N(CCCc4ccccc4)C3=N)cc2)C[C@H](Cc2ccccc2)N1CCCc1ccccc1 [Compound 5],424
2,N=C1N(CC(=O)Nc2cccc(NC(=O)CN3C[C@H](Cc4ccccc4)N(CCCc4ccccc4)C3=N)c2)C[C@H](Cc2ccccc2)N1CCCc1ccccc1 [Compound 6],>83
3,N=C1N(CC(=O)NCCCCCCNC(=O)CN2C[C@H](Cc3ccccc3)N(CCCc3ccccc3)C2=N)C[C@H](Cc2ccccc2)N1CCCc1ccccc1 [Compound 9],66
4,CCCCCCN1C(=N)N(CC(=O)Nc2ccc(NC(=O)CN3C[C@H](Cc4ccccc4)N(CCCCCC)C3=N)cc2)C[C@@H]1Cc1ccccc1 [Compound 11],>769
5,CCCCCCN1C(=N)N(CC(=O)Nc2cccc(NC(=O)CN3C[C@H](Cc4ccccc4)N(CCCCCC)C3=N)c2)C[C@@H]1Cc1ccccc1 [Compound 12],>1534
6,CCCCCCN1C(=N)N(CC(=O)NCCCCNC(=O)CN2C[C@H](Cc3ccccc3)N(CCCCCC)C2=N)C[C@@H]1Cc1ccccc1 [Compound 13],>333
7,CCCCCCN1C(=N)N(CC(=O)NCCCCCCNC(=O)CN2C[C@H](Cc3ccccc3)N(CCCCCC)C2=N)C[C@@H]1Cc1ccccc1 [Compound 14],>769
8,CCCCCCN1C(=N)N(CC(=O)NCCCCCCCCNC(=O)CN2C[C@H](Cc3ccccc3)N(CCCCCC)C2=N)C[C@@H]1Cc1ccccc1 [Compound 15],>333
9,N=C1N(CC(=O)Nc2ccc(NC(=O)CN3C[C@H](Cc4ccccc4)N(CCCC4CCCCC4)C3=N)cc2)C[C@H](Cc2ccccc2)N1CCCC1CCCCC1 [Compound 19],6
10,N=C1N(CC(=O)Nc2cccc(NC(=O)CN3C[C@H](Cc4ccccc4)N(CCCC4CCCCC4)C3=N)c2)C[C@H](Cc2ccccc2)N1CCCC1CCCCC1 [Compound 20],80
11,CCCCCCN1C(=N)N(CC(=O)Nc2cccc(NC(=O)CN3C[C@H](CC(C)C)N(CCCCCC)C3=N)c2)C[C@@H]1CC(C)C [Compound 23],266
